Target: T1, RahU (RahU-His6, membrane interaction studies) (Pseudomonas aeruginosa, UniProt Q9I710)
T1 construct: gene PA0122
Conditions: 4 uM RahU, 20 mM Tris versus 10 mM Hepes, pH 7.4; equimolar CPE/POPC/cholesterol LUVs; direct competition or allosteric site undecided

NC(CO)(CO)CO [Tris]
SPR and co-sedimentation, interference with binding to CPE vesicles: Tris indeed interferes with RahU binding to the membranes

From paper PMC7985367, “Crystal structure of RahU, an aegerolysin protein from the human pathogen Pseudomonas aeruginosa, and its interaction with membrane ceramide phosphorylethanolamine” (Scientific Reports, 2021)
